Values quoted from earlier work in article PMC5954841.

What was measured:
[1] = molecular target: Caf1A usher (Yersinia pestis) (UniProt P26949)
[2] = molecular target: Caf1 pilus subunit (Yersinia pestis) (UniProt P26948)

Substance	Kd [1] [µM]	Kd [2] [µM]
Caf1M-Caf1 chaperone-subunit complex (from UniProt P26926)	2.42	–
Caf1M chaperone (from UniProt P26926)	–	0.0625
